Compound potency records, mixed from different reports. Data source: NIAID ChemDB in PubChem.

Common to all: tests in culture; species: HIV-1; read by: p24; read-out: EC50

a–b is a range or a potency band. An empty or dashed field is not shown. Neighbouring rows are from separate reports. ECn: concentration that inhibits the pathogen or its effect by n%.

compound | mutations | cells | strain or isolate | result
O=C(N[C@@H](Cc1ccccc1)C(=O)C(F)(F)CN(Cc1ccccc1)S(=O)(=O)c1ccccc1)O[C@H]1CCOC1 | - | CEM | IIIB | <1 µM
COc1ccc(-c2c(C)nc3c(N4CC[C@@H](NC(=O)c5ccccc5)C4)cc(C)nn23)cc1OC | - | H9 | - | <1 µM
CC(C)CN(C[C@@H](O)[C@H](Cc1ccccc1)NC(=O)O[C@@H]1CCOC1)S(=O)(=O)c1ccc([N+](=O)[O-])cc1 | - | CEM | IIIB | <0.101 µM
COc1ccc(-c2c(C)nc3c(N4CC[C@@H](NC(C)=O)C4)cc(C)nn23)cn1 | - | H9 | - | 0.5 µM
Cc1ccc(-c2ccc3c(c2)C=C(C(=O)Nc2ccc(C[N+](C)(C)C4CCOCC4)cc2)CCC3)cc1 | - | PBMC | Du368 CLADE C | <1 µM
COc1ccc2[nH]c(C(=O)N3CCN(c4ncccc4NC(C)C)CC3)cc2c1 | - | H9 | IIIB | 0.06 µM
O=C(c1ccccc1)N(CCc1ccccc1)C[C@H](O)CN(CC1CCCC1)S(=O)(=O)CC1COCO1 | - | CEM | IIIB | <1 µM
COc1ccc(-c2c(C)nn3c(N4CC[C@@H](NC(C)=O)C4)nc(C)nc23)cc1OC | - | H9 | - | >100 µM
CCN1c2ncc(CCOc3ccc(C(=O)Nc4ccc(C(=O)O)cc4)cc3C)cc2C(=O)N(C)c2cccnc21 | - | C8166 | IIIB | <0.01 µM
CCN1CCn2c(nc(C(=O)NCc3ccc(F)c(C)c3)c(O)c2=O)C(N(C)C(=O)C(=O)N(C)C)C1 | - | MT-4 | - | <1 µM
NCCSSCCN | - | Macrophage | BaL | ~50 µM
CC(C)CN(C[C@@H](O)[C@H](Cc1ccccc1)NC(=O)O[C@@H]1CCOC1)S(=O)(=O)c1ccc(F)cc1 | - | CEM | IIIB | <0.101 µM
CS(=O)c1ccc(-c2nc(-c3ccc(F)cc3)c(-c3ccncc3)[nH]2)cc1 | - | PBMC | AZT-resistant A012 Clinical isolate | 1 µM
COCC(C)n1c(=O)c(O)c2n(c1=O)CCN(Cc1ccc(F)cc1)C2=O | - | MT-4 | - | <10 µM
COC(=O)[C@H](C)NP(=O)(OC[C@@H]1C=C[C@H](n2cc(C)c(=O)[nH]c2=O)O1)Oc1c(OC)cccc1OC | RT-Y181C | PBMC | A17 | 0.137 µM
CCCOC(=O)N[C@@H](Cc1ccccc1)[C@H](O)CN(CC(C)C)S(=O)(=O)c1ccc(Cl)c(Cl)c1 | - | CEM | IIIB | <1.001 µM
CCN1c2ncc(CCOc3ccc(C(=O)Nc4ccc(C(=O)O)cc4)cc3C)cc2C(=O)Nc2c(C)ccnc21 | RT-K103N Y181C | C8166 | - | >0.05 µM
CN1CCn2c(nc(C(=O)NCc3ccc(F)cc3)c(O)c2=O)C(N(C)C(=O)C(=O)N(C)C)C1 | - | MT-4 | - | <1 µM
O=C(N[C@@H](Cc1ccccc1)[C@H](O)CN(CC1CCCC1)S(=O)(=O)c1ccc(F)cc1)OCc1cccnc1 | - | CEM | IIIB | <1.001 µM
CC(C)n1c(C(=O)N(C)C)c2c(c(O)c1=O)C(=O)N(Cc1ccc(F)c(Cl)c1)CC2 | - | MT-4 | - | <10 µM
Nc1nccc2c1ncn2[C@@H]1C=C(CO)[C@@H](O)[C@H]1O | - | PBMC | A012 PRE-AZT | 0.0104 µM
O=C1c2c(O)c(=O)n(C3CCN(CC4CC4)CC3)c(=O)n2CCN1Cc1ccc(F)cc1 | - | MT-4 | - | <10 µM
CCN1c2nc(C(F)(F)F)ccc2NC(=O)c2cc(CCOc3cc[n+]([O-])c4ccccc34)cnc21 | RT-V106A | C8166 | - | 0.083 µM
Cc1cc(CNC(=O)c2nc3n(c(=O)c2O)CCN(CC2CC2)CC3N(C)C(=O)C(=O)N(C)C)ccc1F | - | MT-4 | - | <1 µM
COc1ccc(S(=O)(=O)N(CC2CCCC2)CC(F)(F)C(=O)[C@@H](Cc2ccccc2)NC(=O)O[C@H]2CCOC2)cc1 | - | CEM | IIIB | <1 µM
CN(C)C(=O)c1[nH]c(=O)c(O)c2c1CCN(Cc1ccc(F)cc1)C2=O | - | MT-4 | - | <10 µM
CCCCCCCCCCCCCCCCCCOC[C@H](COP(=O)(O)C(=O)O)OCC | - | MT-2 | LAI | 390 µM
CCNc1cccnc1N1CCN(C(=O)c2cc3ccccc3[nH]2)CC1 | - | H9 | IIIB | 0.06 µM
CC(C)CN(C[C@@H](O)[C@H](Cc1ccccc1)NC(=O)OCc1ccccc1)S(=O)(=O)c1ccc(F)cc1 | - | CEM | IIIB | <1.001 µM
COC(=O)c1ccc(-c2c(C)nc3c(N4CC[C@@H](NC(C)=O)C4)cc(C)nn23)cc1F | - | H9 | - | 0.4 µM
Nc1nc(NC2CC2)c2ncn([C@H]3C=C[C@@H](CO)C3)c2n1 | - | MT-4 | NL-XM WT | <1.9 µM
O=C1c2c(O)c(=O)n(CC3COCCN3)c(=O)n2CCN1Cc1ccc(F)cc1 | - | MT-4 | - | <10 µM
COC(=O)[C@H](C)NP(=O)(OC[C@@H]1C=C[C@H](n2cc(C)c(=O)[nH]c2=O)O1)Oc1ccc(Cl)cc1 | - | PBMC | IIIB WT | 0.001 µM
NC(=O)C[C@H](NC(=O)c1ccc2ccccc2n1)C(=O)N[C@@H](Cc1ccccc1)[C@H](O)CN(Cc1ccccc1)S(=O)(=O)c1cccc(C(F)(F)F)c1 | - | CEM | IIIB | <1.001 µM
COc1ccc(-c2c(C)nc3c(N4CC[C@@H](NS(=O)(=O)c5ccc(C)cc5)C4)cc(C)nn23)cc1OC | - | H9 | - | 0.09 µM
CCN(CC)C(=O)c1c2c(c(O)c(=O)n1C)C(=O)N(Cc1ccc(F)c(Cl)c1)CC2 | - | MT-4 | - | <10 µM
O=C1c2c(O)c(=O)n(C3CCCC3)c(=O)n2CCN1Cc1ccc(F)cc1 | - | MT-4 | - | <10 µM
CN1CCn2c(nc(C(=O)NCc3ccc(F)cc3)c(O)c2=O)C(N(Cc2ccccc2)C(=O)C(=O)N(C)C)C1 | - | MT-4 | - | <1 µM
CCN1c2ncc(CCOc3ccc(C(=O)NCC4(C(=O)O)CCCC4)cc3C)cc2C(=O)N(C)c2cccnc21 | RT-K103N Y181C | C8166 | - | 0.01–0.05 µM
CC(C)CN(C[C@@H](O)[C@H](Cc1ccccc1)NC(=O)OCc1ccccn1)S(=O)(=O)c1ccc(F)c(F)c1 | - | CEM | IIIB | <1.001 µM
COc1ccc(-c2c(C)nc3c(N4CC[C@@H](NC(=O)Oc5cccc(C)c5)C4)cc(C)nn23)cc1OC | - | H9 | - | 0.2 µM
CCN1c2ncc(CCOc3ccc(-c4ccc(C(=O)O)cc4)cc3C)cc2C(=O)N(C)c2cccnc21 | RT-K103N Y181C | C8166 | - | <0.01 µM
CCc1c(Sc2ccccc2)n(COCc2ccccc2)c(=O)[nH]c1=O | - | PBL | IIIB | 0.0072 µM
COc1ccc(S(=O)(=O)N(CC2CCCC2)C[C@@H](O)CN(CC(C)C)C(=O)O[C@H]2CCOC2)cc1 | - | CEM | IIIB | <1 µM
O=C(O)C(O)c1ccccc1 | - | U87 (CD4+ CXCR4+) + U87 | IIIB | <10 µg/mL
CC(C)[C@H](NC(=O)OCc1ccccn1)C(=O)N[C@@H](Cc1ccccc1)[C@@H](O)C[C@H](Cc1ccccc1)NC(=O)OCc1cccnc1 | PR-L63P V82T I84V | MT-4 | NL4-3 | <3 µM
CC(=O)N1CCOCC1Cn1c(=O)c(O)c2n(c1=O)CCN(Cc1ccc(F)cc1)C2=O | - | MT-4 | - | <10 µM
CC(C)CN(CC(O)CNc1cc(C(C)(C)C)[nH]n1)S(=O)(=O)c1ccccc1 | - | CEM | IIIB | <1 µM
COC(=O)[C@H](C)NP(=O)(OC[C@@H]1C=C[C@H](n2cc(C)c(=O)[nH]c2=O)O1)Oc1ccc(OC)cc1 | - | PBMC | IIIB WT | 0.004 µM
CC(C)CN(C[C@@H](O)[C@H](Cc1ccccc1)NC(=O)O[C@@H]1CCOC1)S(=O)(=O)c1ccoc1 | - | CEM | IIIB | <0.101 µM
Nc1nc(=O)n([C@H]2C=C[C@@H](CO)O2)cc1F | RT-A62V V75I F77C F116Y Q151M | PBMC | XM-Q151M | <26 µM
CCN1c2ncc(CCOc3ccc(C(=O)NC(C)(C)C(=O)O)cc3C)cc2C(=O)N(C)c2cccnc21 | RT-K103N Y181C | C8166 | - | >0.05 µM
O=C(O)c1[nH]c(=O)c(O)c2c1CCN(Cc1ccc(F)cc1)C2=O | - | MT-4 | - | <10 µM
COc1ccc(S(=O)(=O)N(CC(C)C)C[C@@H](O)CCN(CC2CCCC2)S(=O)(=O)Cc2ncc[nH]2)cc1 | - | CEM | IIIB | <1 µM
CC(=O)N1CCC(C(=O)N(CCCN2CCC(Cc3ccc(C(N)=O)cc3)CC2)c2ccc(C)c(Cl)c2)CC1 | - | PBMC | CTV Clinical isolates | 0.0007 µM
C=C1CN(S(=O)(=O)c2ccc(C)cc2)CCCN(Cc2ccccc2)CCCN(S(=O)(=O)c2ccc(C)cc2)C1 | - | Monocytes/macrophages | BaL | 0.96 µM
Nc1ncnc2c1ncn2[C@@H]1C=C(CO)[C@@H](O)[C@H]1O | - | PBMC | A018 PRE-AZT | 0.0178 µM
O=C(NCc1ccc(F)cc1)c1nc2n(c(=O)c1O)CCOCC2 | - | MT-4 | - | <50 µM
CCN1c2ncc(CCOc3ccc(NC(=O)/C=C/C(=O)O)cc3C)cc2C(=O)N(C)c2cccnc21 | - | C8166 | IIIB | >0.05 µM
Clc1cc(CN2CCCNCCNCCCNCC2)cc(Cl)n1 | - | HOS-CD4-CCR5 + HOS | IIIB X4 | 3.2 µM
CC1(C)c2nc(C(=O)NCc3ccc(F)cc3)c(O)c(=O)n2CCN1Cc1cnccn1 | - | MT-4 | - | <1 µM

3 of the rows above, restated:

COc1ccc(-c2c(C)nc3c(N4CC[C@@H](NC(=O)Oc5cccc(C)c5)C4)cc(C)nn23)cc1OC ; cells: H9 ; result: 0.2 µM
CC(C)CN(C[C@@H](O)[C@H](Cc1ccccc1)NC(=O)O[C@@H]1CCOC1)S(=O)(=O)c1ccoc1 ; cells: CEM ; strain or isolate: IIIB ; result: <0.101 µM
Nc1nccc2c1ncn2[C@@H]1C=C(CO)[C@@H](O)[C@H]1O ; cells: PBMC ; strain or isolate: A012 PRE-AZT ; result: 0.0104 µM